According to the supplement of paper PMC9931576:
Human monoclonal antibodies against the spike receptor-binding domain (heavy:light variable regions). IC50 against pseudoviruses bearing the spike of naturally observed variants; lower = stronger; >10 µg/ml means not reached at the top dose. No active / inactive call. The stated detection limit is 0.0005 µg/ml; values near or below 0.001 µg/ml lie at the floor of the assay.

What was measured:
Assay in all cases: pseudovirus neutralization IC50; higher = weaker neutralization
[1] = target: SARS-CoV-2 Omicron BA.1 spike pseudovirus
Method: (§1)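 Single-round VSV luciferase pseudovirus mixed with antibody dilutions for 1 h and put on Huh-7 cells for about a day; IC50 from the dose curve.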

[2] = target: SARS-CoV-2 Omicron BA.2 spike pseudovirus
Method: as §1

[3] = target: SARS-CoV-2 Omicron BA.2.75 spike pseudovirus
Method: as §1

[4] = target: SARS-CoV-2 Omicron BA.5 spike pseudovirus
Method: as §1

[5] = target: SARS-CoV-2 Omicron BQ.1.1 spike pseudovirus
Method: as §1

[6] = target: SARS-CoV-2 Omicron XBB spike pseudovirus
Method: as §1

[7] = target: SARS-CoV-2 early D614G spike pseudovirus
Method: as §1

| Binder | pseudovirus neutralization IC50 [1] [µg/mL] | pseudovirus neutralization IC50 [2] [µg/mL] | pseudovirus neutralization IC50 [3] [µg/mL] | pseudovirus neutralization IC50 [4] [µg/mL] | pseudovirus neutralization IC50 [5] [µg/mL] | pseudovirus neutralization IC50 [6] [µg/mL] | pseudovirus neutralization IC50 [7] [µg/mL] |
| --- | --- | --- | --- | --- | --- | --- | --- |
| BD57-0225 (protein) chain 1: QVQLMQSGAAVKKPGSSVKVSCKASGGTFLTYAINWVRQAPGQGLEWMGRIIPIVGRGDYAQKFQGRVTITADKSTSTVFMEVSTLRPEDTAVYYCARVKENIAVVPAEEPDAFDTWGQGTMVTVSS chain 2: DIVMTQSPDSLAVFLGERATINCKSSQSVLHNFNNKNHLAWYQQKPGQPPKLLIYWASTRESGVPDRFSGSGSGTDFTLTINSLQAEDAAVYYCQQYYSPPMYTFGQGTKLEIK | 0.000831 | 0.0013 | 0.000762 | 0.00232 | > 10 | 0.333 | 0.000429 |
| BD57-0227 (protein) chain 1: QVQLVESGGGVVQPGRSLRLSCAASGFTFSSYAMHWVRQTPGKGLQWVAVISSDGSNTYYADSVKGRFTISRDNAKNTLFLEMNSLRAEDTAVYYCARDCPIAEHQMPEYCSGGSRYSFYFDSWGQGTLVTVSS chain 2: SYVLTQPPSVSVPPGKTARFTCGGNNIGSRSVHWYQQKPGQAPMLVIYYDNDRPSGIPERFSGSNSGNTATLTISRVEAGDEADYYCQVWDSYTDHVIFGGGTKLTVL | > 10 | > 10 | > 10 | > 10 | > 10 | > 10 | > 10 |
| BD57-0231 (protein) chain 1: QVQLVQSGAEVKKPGASVKVSCQASGATFTIYGFHWVRQAPGQGLEWLGWMSTYNGNTDYGQKFQGRVTVTTDTSTSTAWMELRSLRSDDTAVYYCASQRHCGGETCYFENWGQGTLVTVSS chain 2: DIVLTQSPGTLSLSPGERATLSCRASQSVSSTSLAWYQQKPGQAPRLLIYRASTRATGIPDRFSGSGSATDFTLIISRLEPEDFAVYYCHHYGTSPLTFGGGTTVEIK | > 10 | > 10 | 0.167 | 0.407 | 0.379 | 2.28 | 0.00123 |
| BD57-0232 (protein) chain 1: QVQLAQSGAEVKKPGSSVKVSCKASGGTFSNYPIGWVRQAPGHGLEWMGSIIPIVGIANYAQNFEGRVTLTADKSTSTAYMELSSLRSEDTALYYCARSLGYSGYGAASYFDPWGQGTLVTVSS chain 2: QSVLTQPPSVSGAPGQRVTISCTGSNSNIGAGYDVHWYQLLPGTAPKLLIYVNSNRPSGVPDRFSGSKSGTSASLAITGLQAEDEADYYCQSYDSSLSGSIFGGGTRLTVL | 0.0624 | 0.0305 | 0.0157 | 0.429 | 3.12 | 0.954 | 0.246 |
| BD57-0233 (protein) chain 1: QVQLVQSGGEVKKPGASVKVSCKASGYTFTSYGISWVRQAPGQGLEWMGWISAYNGNTNYAQSFQDRVTMTTDTSTSTVYMELRSLRSDDTAVYYCARVWDYYDSSVFQTQYYFDSWGQGTLVTVSS chain 2: DIQMTQSPSSVSASVGDRVTITCRASQGISNWLAWYQQKPGKAPKLLIYAASSLQSGVPSRFSGSGSGTDFTLTISSLQPEDFATYYCQQGNSFPPIFTFGPGTKVDIK | 2.71 | 1.99 | 3.92 | 3.3 | 2.5 | 2.72 | > 10 |
| BD57-0238 (protein) chain 1: QLQLQESGPGLVKPSETLSLTCTVSGGSISSSSYYWAWIRQPPGKGLEWIGSIFHSGITYYNPSFKSRVTISVDTSKNNFSLKLSSVTAADMGVYYCARLVRGFGYYASGSYDQWGQGTLVAVSS chain 2: QSALTQPASVSGSPGQSISISCTGTSSDIGSYNLVSWYQQHPGKAPKLMIYEDNKRPSGVSNRFSGSKSGNTASLTISGLQAEDEANYYCSSYVGSSTSLFGGGTKLTVL | > 10 | > 10 | > 10 | > 10 | > 10 | > 10 | > 10 |
| BD57-0239 (protein) chain 1: QGQLVQSGAAVKKPGSSVKVSCKASGGTFSSYAISWVRQAPGQGLEWMGGIMPIYGTVNYAQTFQGRVTITADESTSTAYMELSSLRSEDTAVYYCARDFGDIPTRLSYAYYMDVWGQGTSVTVPS chain 2: QSALAQPASVSGSPGQSITISCTGTSSDVGGYNFVSWYQQHPGKAPKLMIFDVNNRPSGVSNRFSGSKSGNTASLTISGLQAEDEADYYCSSYTSSSTPYVFGSGTKVTVL | 0.0368 | 0.0247 | 0.0196 | 0.0351 | > 10 | 3.06 | 0.00623 |
| BD57-0249 (protein) chain 1: QVQLMQSGAEVKRPGASVKVSCKPSGHTFTNSYIHWVRQAHGQGLEWLGIINPSGGSTTYAQKFQGRVTMTSDTSTTTVYMELSRLRFEDTAVYYCARGGFIPDHRTAFDIWGQGTMVSVSS chain 2: DIQMTQSPPTLSASVGDRVTITCRASQSIGNSLAWYQQRPGKAPNLLIYKASNLESGVPSRFSGSGSGTEFTLTISSLQPDDFATYYCQQYNTYYTFGQGTKLEIK | 2.68 | 4.72 | 6.06 | 6.8 | 8.81 | 8.26 | > 10 |
| BD57-0255 (protein) chain 1: QLQLQESGPRLAKPLETLSLTCTVSGGSISSRNYYWNWIRQAPGKGLEWIGSVYDSGTYYNPSLKSPVAISVDTSKNQFSLKLNSVTAADTAVYYCAVQLWLRGNMDVWGQGTTVTVSS chain 2: NLMLTQPHSVSESPGKTVVISCTGSGGYIGNNYVQWYQQRPGSAPTTVIYEDNQRPSGVPDRFSGSIDSSSNSASLTISGLRTEDEADYYCQSYDINTHVVFGGGTKLTVL | > 10 | 2.86 | 3.28 | 2.41 | 3.28 | 3.19 | 0.183 |
| BD57-0259 (protein) chain 1: QVHLVQSGAEVKKPGSSVRVSCRASGGTFGTYAITWVRQAPGQGLEWMGGIIPMYGTTNYAQKFQGRVTITADESTNTAYMELNSLRFEDTAVYYCARDEPGYNNPSYYYYYMEVWGKGTTVTVSS chain 2: ELVLTQSPGTLSLSPGERVTLTCRASQSVTNNYLAWYQHKPGQAPRLLIYGASSRATGIPPRFSGSGSGTDFTLSISRLETEDFAVYYCQQYGDSITFGQGTRLEIK | 0.598 | 0.309 | 0.489 | 0.0918 | > 10 | > 10 | 0.21 |
| BD57-0260 (protein) chain 1: QVLLVQSGTEVKKPGSSVRVSCKASGGIFRDNTINWVRQAPGHGLEWMGRIIPHPNLTDYVERLQDRLTIIADKATSTAYLELRSLRSEDTAVYYCASPLKRGYSGYDYFDYGMDVWGQGTTVIVSS chain 2: DTQMTQSPSSLSASIGDRVTITCQANQDITNFLNWYQQKPGKAPRLLIYLASNMEKGVPSRFSGSGSGTDFTFTISSLQPEDVATYYCQQYDNLPLTFGGGTKVNIK | 0.384 | > 10 | > 10 | > 10 | > 10 | > 10 | 0.0164 |
| BD57-0265 (protein) chain 1: QVQLQVSGPGLVKPSETLSLTCTVSGGSISSYYWTWIRQPPGKGLEWIGYVFYNGSTKYNPSLKSRLTISVDTSRDQFSLRLRSVTAADTAVYFCAGDYGDSYYQFGMDVWGQGTTVTVSS chain 2: DIQMTQSPSSVSASVGDRVTITCRASQGISGWLAWYQQKPGKAPKLLIYAASNLQSGVPSRFSGSGSGTDFTLSIDNLQPEDFATYYCQQANSFPRTFGQGTKVEIK | 6.51 | > 10 | 7.8 | 5.67 | 4.95 | 2.69 | > 10 |
